According to publication PMC6265350:
For at least one entry, the source does not settle the construct or the ends of the probe.

Columns and labels:
MtrA~P = target: T1, MtrA~P (UniProt P9WGM7); assay: EMSA; conditions: phosphorylated by EnvZ; 50 mM Tris-HCl pH 7.5, 50 mM NaCl, 10 mM MgCl2, 10 mM CaCl2, poly dI/dC and sheared salmon sperm DNA (1 ug), 37 C 15 min; 200 fmol DNA, 1-10 uM protein; 5% PAGE; recombinant protein; protein details: MBP fusion; label: FAM; probe letters rebuilt from the primers and the genome; part of a longer molecule
T1 sequence: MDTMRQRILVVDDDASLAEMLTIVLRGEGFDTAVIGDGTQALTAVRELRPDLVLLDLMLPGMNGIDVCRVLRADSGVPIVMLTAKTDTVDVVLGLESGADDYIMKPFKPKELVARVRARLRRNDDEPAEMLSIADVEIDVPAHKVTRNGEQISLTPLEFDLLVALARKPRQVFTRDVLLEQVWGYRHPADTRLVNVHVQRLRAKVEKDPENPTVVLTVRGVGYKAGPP

MtrA (unphosphorylated) = target: T2, MtrA (unphosphorylated) (UniProt P9WGM7); assay: EMSA; conditions: unphosphorylated; 50 mM Tris-HCl pH 7.5, 50 mM NaCl, 10 mM MgCl2, 10 mM CaCl2, […]; recombinant protein; protein details: MBP fusion; label: FAM; probe letters rebuilt from the primers and the genome; part of a longer molecule
T2 sequence: T1 sequence

Sequence	binding result (MtrA~P)	binding result (MtrA (unphosphorylated))
GTAGCCGTGGTGCAACTACCGTCCATCCTGTCACACCAGACTCGGCGGTTGCCGATTGGACTAAGTAAATAAGGACCAATTTCAAACTCTAAGACCAAATAAATCACAATCCTTAGATTTGAAATCGTGCGCGCCAAACTTGTCCCCAAATCGTGGCCGAACCGTCTCTCAA (double strand) [Pwag31]	binds	–
TGGTTCGTTATCTATCCGTTGTGGTCGCGATCACGCTGATGCTCACCGCGGAATCAGTCAGCATAGCGACCGCCGCGGTCCCGCCACTCCAACCGATCCCAGGCGTTGCGTCGGTGTCGCCGGCTAATGGTGCCGTGGTGGGGGTGGCGCACCCGGTGGTGGTGACATTCACCACGCCCGTGACCGATCGCCGCGCCGTCGAGCGGTCCATCCGCATCAGCACACCGCACAACACGACCGGACACTTCGAGTGGGTCGCTAGCAATGTCGTGCGGTGGGTGCCCCACCGGTATTGGCCACCTCACACCCGTGTCTCGGTGG (double strand) [PoxyS]	binds	–
AGTGGCGTCACCGATGACTACCGTCAAGGATAGACGCTAGGGGCGCTGCCGAATTTCCGTCAATAGGCGTCCGTTGGCGTGCAATATCGGACCGTTGCGTGAGAATTAACTCTGCGTTCATCTGCGCCGCATTCGCCGCCTGCGCCGCATGCTATCCCGGGCGGATAGATGAGGTATTTGCCCAGGTCATCCCATGCTGTGAGTACGCCTAAATTAGCGCAAAGAAAGCTGTGAGTAATATGCCGTTAACGAAGAA (double strand) [PsigD]	binds	–
GTCGGTGCGGCATCACTTTCGGGATTCGGTATCCGACACCATGCGTATTACCGATCTGGCTGCCCCTAGAAAGATTCCCCCGGGAACCGGTTGGCGGAAATTCGTCTATTCCGTTTCATTTCACAAAATTAATCCAGGTGAATCGCCCCGGGAACGGCACTACCGCAATTTACAGGGACGTATCCGTCGGCATATCCGTCGGCAATATGTCATCACGGTTGTGTCCGGCAAGGGCGGCGTGGGGGTCACCACGATGGCCGCGTGCATCGGCGGCG (double strand) [Prv3887c]	binds	binds
